The nature of this data set: general procedure: Fmoc solid-phase peptide synthesis; Wang resin preloaded with the first amino acid residue; DIC/HOBt. The settings on record: whole synthesis; for isolated yield: scale of the general procedure 0.1 mmol.

Some peptides are written in HELM: one residue between dots, names in brackets for other building blocks, links after the first $.

In publication PMC5465072 (Scientific Reports, 2017) one finds isolated mass and isolated yield data, which are given here for eleven substances.

In turn, PEPTIDE1{C.L.R.F.T}$$$$V2.0 had an isolated mass of 54 mg and an isolated yield of 34%.

The substance PEPTIDE1{C.L.R.P.T}$$$$V2.0 had an isolated mass of 21.0 mg and an isolated yield of 15%.

Substance PEPTIDE1{C.L.R.[3-NO2-Y].T}$$$$V2.0 gave an isolated mass of 66 mg and an isolated yield of 38%.

PEPTIDE1{C.L.R.[4-CN-F].T}$$$$V2.0: the isolated mass amounted to 60 mg and the isolated yield is 36%.

PEPTIDE1{C.L.R.[4-Cl-F].T}$$$$V2.0 yielded an isolated mass of 19 mg and an isolated yield of 11%.

Take PEPTIDE1{C.L.R.[4-NO2-F].T}$$$$V2.0: the isolated mass is listed as 65 mg and the isolated yield is 40%.

PEPTIDE1{C.L.R.[Phg].T}$$$$V2.0 showed an isolated mass of 55 mg and an isolated yield of 35%.

Substance PEPTIDE1{C.L.R.[dF].T}$$$$V2.0 gave an isolated mass of 52 mg and an isolated yield of 33%.

Turning to PEPTIDE1{C.L.R.[hPhe].T}$$$$V2.0, the isolated mass worked out at 63 mg and the isolated yield turned out to be 37%.

As to PEPTIDE1{C.M.N.H.F.P.A}$$$$V2.0, the isolated mass amounted to 56 mg and the isolated yield was determined as 27%.

Substance PEPTIDE1{H.P.C.N.A.M.F}$$$$V2.0 registered an isolated mass of 45 mg and an isolated yield of 22%.
